Measured values from several laboratories, pooled; numbers as filed in NIAID ChemDB.

Shared fields: whole-cell or culture tests; organism: Mycobacterium tuberculosis

Rows are shuffled and stem from different studies.

compound,method,tested at,strain,read-out,cells,value
CC1CN(c2cc3c(cc2F)c(=O)c(C(=O)O)cn3-c2ccc(F)cc2F)CCN1,,,ATCC 35820,MIC,,0.5 µg/mL
O/N=C(\c1ccccc1)C(O)c1ccccc1,,,H37Rv,MIC,,>100 µg/mL
CC[C@H]1OC(=O)[C@H](C)[C@@H](O[C@H]2C[C@@](C)(OC)[C@@H](O)[C@H](C)O2)[C@H](C)[C@@H](O[C@@H]2O[C@H](C)C[C@H](N(C)C)[C@H]2O)[C@](C)(O)C[C@@H](C)CN(C)[C@H](C)[C@@H](O)[C@]1(C)O,,,MDR,MIC90,,>8 µg/mL
O=C(O)CCCCCCC(=O)O,,,H37Rv,MIC,,>100 µg/mL
CC(CNC1CCCCCCC1)NC[C@@H]1CC[C@H]2C[C@@H]1C2(C)C,,,,MIC,,12.5 µM
CO[C@H]1/C=C/O[C@@]2(C)Oc3c(C)c(O)c4c(O)c(c5c(c4c3C2=O)NC2(CCN(CC(C)C)CC2)N=5)=NC(=O)/C(C)=C\C=C\[C@H](C)[C@H](O)[C@@H](C)[C@@H](O)[C@@H](C)[C@H](OC(C)=O)[C@@H]1C,,,H37Rv,Mean MIC,,0.04 µg/mL
Cc1ccc(N)c(S(=O)(=O)O)c1,,,H37Rv,MIC,,50 µg/mL
O=[N+]([O-])c1ccc(CO)c(I)c1,BACTEC,,H37Rv,MIC bound,,>12.5 µg/mL
NNc1ccc([As]=O)cc1,,,H37Rv,MIC,,>100 µg/mL
CO[C@H]1/C=C/O[C@@]2(C)Oc3c(C)c(O)c4c(=O)c(c5oc6cc(N7CCN(CC(C)C)CC7)cc(=O)c6nc5c4c3=C2O)NC(=O)/C(C)=C\C=C\[C@H](C)[C@H](O)[C@@H](C)[C@@H](O)[C@@H](C)[C@H](OC(C)=O)[C@@H]1C,,,3064 (rifampin-sensitive),MBC,,0.012 µg/mL
CO[C@H]1/C=C/O[C@@]2(C)Oc3c(C)c(O)c4c(O)c(c5c(c4c3C2=O)NC2(CCN(CC(C)C)CC2)N=5)=NC(=O)/C(C)=C\C=C\[C@H](C)[C@H](O)[C@@H](C)[C@@H](O)[C@@H](C)[C@H](OC(C)=O)[C@@H]1C,,,Strain 135 (Q513K),MIC,,32 µg/mL
COc1ccc(CCNCCNCC23CC4CC(CC(C4)C2)C3)cc1OC,,,,MIC,,6.25 µM
CCOC(=O)/C(C#N)=C/Nc1cccc(C(F)(F)F)c1,,,H37Rv,MIC,,100 µg/mL
C[C@H]1C[C@H](N)CN1c1cc2c(cc1F)c(=O)c(C(=O)O)cn2-c1ccc(F)cc1F,,,ATCC 35820,MBC,,4 µg/mL
CO[C@H]1/C=C/O[C@@]2(C)Oc3c(C)c(O)c4c(O)c(c(/C=N/N5CCN(Cc6ccccc6)CC5)c(O)c4c3C2=O)NC(=O)/C(C)=C\C=C\[C@H](C)[C@H](O)[C@@H](C)[C@@H](O)[C@@H](C)[C@H](OC(C)=O)[C@@H]1C,,,CS-R,MIC,,≤0.01 µg/mL
CS(=O)(=O)N(c1ccccc1)S(C)(=O)=O,,,H37Rv,MIC,,>100 µg/mL
O=C(N/N=C/c1ccc(O)cc1O)c1cccnc1,BACTEC,,H37Rv,MIC bound,,>12.5 µg/mL
CO[C@H]1/C=C/O[C@@]2(C)Oc3c(C)c(O)c4c(O)c(c5c(c4c3C2=O)NC2(CCN(CC(C)C)CC2)N=5)=NC(=O)/C(C)=C\C=C\[C@H](C)[C@H](O)[C@@H](C)[C@@H](O)[C@@H](C)[C@H](OC(C)=O)[C@@H]1C,,,S-3M (susceptible),MIC,,0.05 µg/mL
CC1SC(=Nc2ccc(S(N)(=O)=O)cc2)NC1=O,,,H37Rv,MIC,,100 µg/mL
C[C@@H]1CN(c2c(F)c(N)c3c(=O)c(C(=O)O)cn(C4CC4)c3c2F)C[C@H](C)N1,,,MDR-1 (MDR),MIC,,0.2 µg/mL
O=C1c2ccc(O)cc2C(=O)c2c1ccc(O)c2O,BACTEC,,H37Rv,MIC bound,,>12.5 µg/mL
CO[C@H]1/C=C/O[C@@]2(C)Oc3c(C)c(O)c4c(O)c(c(/C=N/N5CCN(C/C=C/c6ccccc6)CC5)c(O)c4c3C2=O)NC(=O)/C(C)=C\C=C\[C@H](C)[C@H](O)[C@@H](C)[C@@H](O)[C@@H](C)[C@H](OC(C)=O)[C@@H]1C,,,2242 (RIF-S),MIC,,0.015 µg/mL
O=C1C=Cc2ccccc2C1=O,,,H37Rv,MIC,,>100 µg/mL
C=C1C(=O)[C@@]23C[C@@H]1C[C@H](O)[C@@H]2C1(CCC[C@@](C)(COC(C)=O)C1C=O)COC3=O,BACTEC,12.5 µg/mL,H37Rv,inhibition,,9%
CC(=O)Oc1c(C)c(Br)c(OC(C)=O)c(-c2c(C)cc(C)c(Br)c2C)c1Br,,,H37Rv,MIC,,>100 µg/mL
CC(=O)O[C@H]1C[C@@]2(C)[C@@H](C[C@@H](O)[C@H]3[C@@]4(C)CC[C@@H](O)[C@@H](C)[C@@H]4CC[C@@]32C)/C1=C(\CCC=C(C)C)C(=O)O,,,H37Ra,Mean MIC,,3 µg/mL
CO[C@H]1/C=C/O[C@@]2(C)Oc3c(C)c(O)c4c(O)c(c(/C=N/N5CCN(C6CCCC6)CC5)c(O)c4c3C2=O)NC(=O)/C(C)=C\C=C\[C@H](C)[C@H](O)[C@@H](C)[C@@H](O)[C@@H](C)[C@H](O)[C@@H]1C,,,Isolate 880902 rifampicin-resistant,MIC,,>64 µg/mL
Oc1cccnc1,,,H37Rv,MIC,,>100 µg/mL
CC[C@@H](CO)NCCN[C@@H](CC)CO,,,Isolate 3,MIC,,8 µg/mL
NNC(=O)c1ccncc1,,,PR1233,MIC,,>20 µg/mL
CO[C@H]1/C=C/O[C@@]2(C)Oc3c(C)c(O)c4c(=O)c(c5oc6cc(N7CCN(CC(C)C)CC7)cc(=O)c6nc5c4c3=C2O)NC(=O)/C(C)=C\C=C\[C@H](C)[C@H](O)[C@@H](C)[C@@H](O)[C@@H](C)[C@H](OC(C)=O)[C@@H]1C,,,TN565,MIC,,32 µg/mL
Cc1c(NC(=O)CCl)c(=O)n(-c2ccccc2)n1C,BACTEC,,H37Rv,MIC,,≥12.5 µg/mL
C[C@@H]1[C@H]2C[C@@H](C[C@H]1NCCN[C@H]1C[C@H]3CC[C@]1(C)C3(C)C)C2(C)C,,,,MIC,,12.5 µM
CC[C@H]1OC(=O)[C@H](C)[C@@H](O[C@H]2C[C@@](C)(OC)[C@@H](O)[C@H](C)O2)[C@H](C)[C@@H](O[C@@H]2O[C@H](C)C[C@H](N(C)C)[C@H]2O)[C@](C)(OC)C[C@@H](C)C(=O)[C@H](C)[C@@H](O)[C@]1(C)O,,,9120,MIC,,>4 µg/mL
CCCCC1(C(C#N)C#N)c2ccccc2-c2ccccc21,BACTEC,,H37Rv,MIC bound,,>12.5 µg/mL
O=C(c1cccc(O)c1)c1ccc(O)c(O)c1O,,,H37Rv,MIC,,>100 µg/mL
COC(=O)/C(=N\NC(N)=O)C(C(=O)C(=O)Nc1ccc(C)cc1)c1nc2ccc(C(=O)c3ccccc3)cc2[nH]c1=O,resazurin,,H37Rv,MIC bound,,>6.25 µg/mL
CO[C@H]1/C=C/O[C@@]2(C)Oc3c(C)c(O)c4c(O)c(c(/C=N/N5CCN(C6CCCC6)CC5)c(O)c4c3C2=O)NC(=O)/C(C)=C\C=C\[C@H](C)[C@H](O)[C@@H](C)[C@@H](O)[C@@H](C)[C@H](OC(C)=O)[C@@H]1C,,,H37Rv,Mean MIC,,0.013 µg/mL
CC1=NN(c2ccc(C(=O)O)cc2)C(=O)C1,,,H37Rv,MIC,,>100 µg/mL
CC(CNC[C@@H]1CC[C@H]2C[C@@H]1C2(C)C)N[C@H]1C[C@H]2C[C@@H]([C@@H]1C)C2(C)C,,,,MIC,,25 µM
NCC[C@H](O)C(=O)N[C@@H]1C[C@H](N)[C@@H](O[C@H]2O[C@H](CN)[C@@H](O)[C@H](O)[C@H]2O)[C@H](O)[C@H]1O[C@H]1O[C@H](CO)[C@@H](O)[C@H](N)[C@H]1O,,,H37Rv,Mean MIC,,0.88 µg/mL
O=C1CSc2nc3ccc(Cl)cc3c(=O)n21,BACTEC,12.5 µg/mL,H37Rv,inhibition,,-6%
COc1ccc(C(=O)O)cc1,,,H37Rv,MIC,,>100 µg/mL
CC1COc2c(N3CCN(C)CC3)c(F)cc3c(=O)c(C(=O)O)cn1c23,,,ATCC 35822,MBC,,2 µg/mL
NNC(=O)c1ccncc1,,,H37Rv,Median MIC,,0.025 µg/mL
COC1/C=C/OC2(C)Oc3c(C)c(O)c4c(c3C2=O)C(=O)C([N+](=O)[O-])=C(NC(=O)/C(C)=C\C=C\C(C)C(O)C(C)C(O)C(C)C(OC(C)=O)C1C)C4=O,resazurin,,H37Rv,MIC bound,,<6.25 µg/mL
CCC[C@@H]1C[C@@H](C(=O)N[C@@H]([C@H]2O[C@H](SC)[C@H](O)[C@@H](O)[C@H]2O)[C@@H](C)O)N(C)C1,,,H37Ra,Median MIC,,>256 µg/mL
Nc1ccccc1CCC(=O)c1ccccc1,,,H37Rv,MIC,,>100 µg/mL
C[C@H]1COc2c(N3CCN(C)CC3)c(F)cc3c(=O)c(C(=O)O)cn1c23,,,Isolate 1,MIC,,2 µg/mL
COc1cc(OC)c(/C=N/Nc2cc(C)c3ccc(OC)cc3n2)c(OC)c1,BACTEC,,H37Rv,MIC,,≥12.5 µg/mL
NCC[C@H](O)C(=O)N[C@@H]1C[C@H](N)[C@@H](O[C@H]2O[C@H](CN)[C@@H](O)[C@H](O)[C@H]2O)[C@H](O)[C@H]1O[C@H]1O[C@H](CO)[C@@H](O)[C@H](N)[C@H]1O,broth dilution / resazurin,,MDR23,MIC,,8 µg/mL
CN[C@@H]1[C@H](O[C@H]2[C@H](O[C@H]3[C@H](O)[C@@H](O)[C@H](N=C(N)N)[C@@H](O)[C@@H]3N=C(N)N)O[C@@H](C)[C@]2(O)C=O)O[C@@H](CO)[C@H](O)[C@H]1O,,,Isolate 1,MIC,,8 µg/mL
NC(=O)c1cnccn1,,,Isolate 9132 monodrug-resistant,MIC,,>300 µg/mL
O=C1c2ccccc2C(=O)c2cc3cc(Cl)ccc3cc21,,,H37Rv,MIC,,>100 µg/mL
COc1ccc2ncc(COC(=O)Nc3ccccc3)c(COC(=O)Nc3ccccc3)c2c1,BACTEC,,H37Rv,MIC bound,,≤12.5 µg/mL
O=[N+]([O-])c1ccc(Cl)c2cccnc12,,,H37Rv,MIC,,25 µg/mL
COc1cc(/C=C/C(=O)c2ccc(Nc3ccnc4cc(Cl)ccc34)cc2)cc(OC)c1OC,BACTEC,12.5 µg/mL,H37Rv,inhibition,,51%
COc1ccc(CCC2CCc3ccccc3N2C)cc1OC,,,MT8,MIC,,>100 µg/mL
CCOC1=C(C#N)C(=O)NC2OC(CO)C(O)C2O1,BACTEC,12.5 µg/mL,H37Rv,inhibition,,-18%
CC[C@H]1OC(=O)[C@H](C)[C@@H](O[C@H]2C[C@@](C)(OC)[C@@H](O)[C@H](C)O2)[C@H](C)[C@@H](O[C@@H]2O[C@H](C)C[C@H](N(C)C)[C@H]2O)[C@](C)(OC)C[C@@H](C)C(=O)[C@H](C)[C@@H](O)[C@]1(C)O,,,ATCC 35823,MBC,,>8 µg/mL
Cc1ccc([N+](=O)[O-])cc1NC(=O)NNC(=O)CNC(=O)NCc1ccco1,BACTEC,12.5 µg/mL,H37Rv,inhibition,,0%
CO[C@H]1/C=C/O[C@@]2(C)Oc3c(C)c(O)c4c(O)c(c5c(c4c3C2=O)NC2(CCN(CC(C)C)CC2)N=5)=NC(=O)/C(C)=C\C=C\[C@H](C)[C@H](O)[C@@H](C)[C@@H](O)[C@@H](C)[C@H](OC(C)=O)[C@@H]1C,,,31 (rifampin-resistant),MIC,,0.2 µg/mL
Cc1cc(=O)[nH]c2[nH][nH]c(=O)c12,BACTEC,,H37Rv,MIC,,≥12.5 µg/mL
CNCCc1cccs1.Cl,,,H37Rv,MIC,,>1600 µg/mL
CC(C)O/N=C/c1cc(NC(=S)OC(C)C)ccc1Cl,,,H37Rv,MIC,VERO,3.13 µg/mL
O=[N+]([O-])c1ccc(O)c([N+](=O)[O-])c1,,,H37Rv,MIC,,25 µg/mL
COc1ccc2[nH]c3c(c2c1)CCNC3CC(C)CCC=C(C)C,resazurin,6.25 µg/mL,H37Rv,inhibition,,62%
CO[C@H]1/C=C/O[C@@]2(C)Oc3c(C)c(O)c4c(O)c(c(/C=N/N5CCN(C)CC5)c(O)c4c3C2=O)NC(=O)/C(C)=C\C=C\[C@H](C)[C@H](O)[C@@H](C)[C@@H](O)[C@@H](C)[C@H](OC(C)=O)[C@@H]1C,,,9127,MIC,,≥2 µg/mL
O=c1[nH]c(=O)c2nc3cc(Cl)ccc3nc2[nH]1,BACTEC,,H37Rv,MIC bound,,>12.5 µg/mL
CN1c2ccccc2CCC1CCc1ccc2c(c1)OCO2,,,MT6,MIC,,>339 µg/mL
C=Cc1c(C)c(O)cc2c1-c1ccc(O)c(C)c1CC2,BACTEC,,H37Rv,MIC bound,,>12.5 µg/mL
O=C(O)c1ccc([N+](=O)[O-])cc1O,,,H37Rv,MIC,,50 µg/mL

Repeating the first 5 entries:

{"compound": "CC1CN(c2cc3c(cc2F)c(=O)c(C(=O)O)cn3-c2ccc(F)cc2F)CCN1", "strain": "ATCC 35820", "read-out": "MIC", "value": "0.5 µg/mL"}
{"compound": "O/N=C(\\c1ccccc1)C(O)c1ccccc1", "strain": "H37Rv", "read-out": "MIC", "value": ">100 µg/mL"}
{"compound": "CC[C@H]1OC(=O)[C@H](C)[C@@H](O[C@H]2C[C@@](C)(OC)[C@@H](O)[C@H](C)O2)[C@H](C)[C@@H](O[C@@H]2O[C@H](C)C[C@H](N(C)C)[C@H]2O)[C@](C)(O)C[C@@H](C)CN(C)[C@H](C)[C@@H](O)[C@]1(C)O", "strain": "MDR", "read-out": "MIC90", "value": ">8 µg/mL"}
{"compound": "O=C(O)CCCCCCC(=O)O", "strain": "H37Rv", "read-out": "MIC", "value": ">100 µg/mL"}
{"compound": "CC(CNC1CCCCCCC1)NC[C@@H]1CC[C@H]2C[C@@H]1C2(C)C", "read-out": "MIC", "value": "12.5 µM"}

MIC50, MIC90 and the like: level of inhibition, or share of isolates inhibited. Percent inhibition refers to the dose given; in toxicity tests it is the harm to the cells. An empty or dashed field is not shown. MIC bound: limit read from a one-dose screen.